Pooled drug test results. Numbers come from NIAID ChemDB, via PubChem.

All rows: enzyme or target tests

Percent inhibition refers to the dose given; in toxicity tests it is the harm to the cells. Neighbouring rows are from separate reports. ICn is the concentration giving n% inhibition. An empty or dashed field is not shown.

structure	target	strain or isolate	read by	measure	organism	dose	value
Nc1nc(N)c2ncn([C@@H]3O[C@H](COP(=O)(O)O)[C@@H](O)[C@H]3O)c2n1	DNA polymerase			IC50	Herpes simplex virus 1		<2000 µM
CCN(C(=O)N(C)CCc1ccccn1)c1nc2ccc(NC(=O)CCCNC(=O)OCc3ccccc3)c(C)c2c(=O)o1	Protease			IC50	Herpes simplex virus 1		0.2 µM
C/C(=N\NC(=S)NNC(=S)Nc1cccnc1)c1ccccn1	Ribonucleotide reductase			IC50	Herpes simplex virus 1		>5 µM
Cc1ccc(S(=O)(=O)N[C@@H](C)c2nc3ccsc3c(=O)o2)cc1	HSV-2 protease		HPLC	IC50	Herpes simplex virus 2		>10 µM
CC[C@@H](N(C)C(=O)[C@@H](NC(=O)[C@@H](CC(=O)[C@@H](NC(=O)[C@H](C(C)C)N(C)C(=O)[C@@H](CC1CCCCC1)C(C)C)C(C)(C)C)CC(=O)C(C)(C)C)C1(C(=O)O)CCCC1)C(C)(C)C	Ribonucleotide reductase			IC50	Herpes simplex virus 1		0.123 µM
C/C(=N\NC(=O)NNC(=O)Nc1ccccc1Cl)c1ccccn1	Ribonucleotide reductase			IC50	Herpes simplex virus 1		>5 µM
Cc1c(NC(=O)OC(C)(C)C)ccc2nc(N3CCCC3(OCc3ccccc3)C(=O)N(C)CCc3ccncc3)oc(=O)c12	Protease			IC50	Herpes simplex virus 1		>20 µM
CCOC(=O)/C=C/c1cn([C@@H]2O[C@H](CO)[C@@H](O)[C@@H]2F)c(=O)nc1N	Thymidine kinase	F		inhibition	Herpes simplex virus 1	200 µM	0.9%
Nc1nc(N)c2ncn([C@@H]3O[C@H](COP(=O)(O)OP(=O)(O)O)[C@@H](O)[C@H]3O)c2n1	DNA polymerase			inhibition	Herpes simplex virus 1	2000 µM	96.1%
O=c1[nH]c(=O)n([C@@H]2O[C@H](CO)[C@@H](O)[C@@H]2F)cc1I	DTHD kinase	KOS		Ki	Herpes simplex virus 1		0.68 µM
CCN(C(=O)C1(Nc2nc3ccc(NC(=O)OC(C)(C)C)c(C)c3c(=O)o2)CCCC1)c1cccnc1	Protease			IC50	Herpes simplex virus 1		0.7 µM
Nc1nc(-c2ccc(NC(=O)CNCc3ccccc3)cc2)cs1	Primase			IC50	Herpes simplex virus 1		0.66 µM
Nc1nc(=O)n([C@@H]2O[C@H](CO)[C@@H](O)[C@@H]2F)cc1I	DTHD kinase	333		Ki	Herpes simplex virus 2		6.59 µM
C/C(=N\NC(=S)NNC(=S)Nc1ccccn1)c1ccccn1	Ribonucleotide reductase			IC50	Herpes simplex virus 1		<5 µM
O=c1[nH]c(=O)n([C@@H]2O[C@H](CO)[C@@H](O)[C@@H]2O)cc1/C=C/Br	DTHD kinase	KOS		Ki	Herpes simplex virus 1		0.94 µM
CCc1cn([C@@H]2O[C@H](CO)[C@@H](O)[C@@H]2F)c(=O)nc1N	Thymidine kinase	F		inhibition	Herpes simplex virus 1	200 µM	24.3%
CC[C@@H](NC(=O)[C@@H](NC(=O)[C@H](CC(=O)C(C)(C)C)NC(=O)[C@@H](NC(=O)NC1[C@H](C)CCC[C@@H]1C)C(C)(C)C)C1(C(=O)O)CCCC1)C(C)(C)C	Ribonucleotide reductase		radioligand binding / binding	IC50	Herpes simplex virus 1		<0.001 µM
CCN(C(=O)N(C)CCc1ccccn1)c1nc2ccc(NC(=O)CCCNC(=O)c3cccnc3)c(C)c2c(=O)o1	Protease			IC50	Herpes simplex virus 1		0.9 µM
C=Cc1cn([C@@H]2O[C@H](CO)[C@@H](O)[C@@H]2F)c(=O)nc1N	Thymidine kinase	G		inhibition	Herpes simplex virus 2	200 µM	0%
CC[C@@H](NC(=O)[C@@H](NC(=O)[C@H](CC(=O)N1CCCC1)NC(=O)[C@@H](NC(=O)NC1[C@H](C)CCC[C@@H]1C)C(C)(C)C)C1(C(=O)O)CCCC1)C(C)(C)C	Ribonucleotide reductase		radioligand binding / binding	IC50	Herpes simplex virus 2		<0.001 µM
Cc1c(NC(=O)OC(C)(C)C)ccc2nc(N3CCCC3(OCc3ccccc3)C(=O)N(C)CCc3cccnc3)oc(=O)c12	Protease			IC50	Herpes simplex virus 1		>20 µM
C[C@H](NC(=O)OC(C)(C)C)c1nc2ccsc2c(=O)o1	HSV-2 protease		HPLC	IC50	Herpes simplex virus 2		>10 µM
O=c1ccn([C@@H]2O[C@H](COP(=O)(O)O)[C@@H](O)[C@H]2O)c(=O)[nH]1	DNA polymerase			inhibition	Herpes simplex virus 1	2000 µM	76.1%
CCN(C(=O)N(C)CCc1ccncc1)c1nc2ccc(NC(=O)OC(C)(C)C)c(C)c2c(=O)o1	Protease			IC50	Herpes simplex virus 1		0.9 µM
C/C(=N\NC(=S)NNC(=S)Nc1cc(Cl)ccc1Cl)c1ccccn1	Ribonucleotide reductase			IC50	Herpes simplex virus 1		>5 µM
C[C@@H]1CCC[C@H](C)C1NC(=O)N[C@H](C(=O)C[C@@H](CC(=O)C(C)(C)C)C(=O)N[C@H](C(=O)NCC(C)(C)C)C1(C(=O)O)CCCC1)C(C)(C)C	Ribonucleotide reductase		radioligand binding / binding	IC50	Herpes simplex virus 1		<0.001 µM
Cc1c(NC(=O)OC(C)(C)C)ccc2nc(N(CC(C)C)C(=O)NCc3cccnc3)oc(=O)c12	Protease			IC50	Herpes simplex virus 1		>20 µM
NC(=O)c1ncn([C@@H]2O[C@H](COP(=O)(O)O)[C@@H](O)[C@H]2O)n1	DNA polymerase			inhibition	Herpes simplex virus 1	2000 µM	91.2%
Cc1c(NC(=O)OC(C)(C)C)ccc2nc(N(CCc3ccccc3)C(=O)N(C)CCc3cccnc3)oc(=O)c12	Protease			IC50	Herpes simplex virus 1		0.8 µM
Cc1cn([C@@H]2O[C@H](CO)[C@@H](O)[C@@H]2O)c(=O)[nH]c1=O	DTHD kinase	KOS		Ki	Herpes simplex virus 1		2.99 µM